# Patent US20020068702 (published 2002)
# Assays:
# [1] = general procedure: Fmoc solid-phase peptide synthesis; 2-chlorotrityl; details: whole synthesis
# [2] = general procedure: Fmoc solid-phase peptide synthesis; MBHA; details: whole synthesis
Substance,isolated yield [1] [%],isolated yield [2] [%]
Ac-E(OtBu)E(OtBu)VVP-OH,65,–
Ac-Glu-Glu-Val-Val-Pro-nVal(CO)-Gly-Met-Ser-Tyr-Ser-NH2,–,26

# * marks the point of attachment. OtBu = CC(C)(C)O*
